Pooled drug test results. Numbers come from NIAID ChemDB, via PubChem.

Shared fields: tests in culture; agent: HIV-1; method: syncytia; endpoint: EC50

Lines come from different laboratories, so protocols vary. Blank or dashed fields: not listed here. ECn is the concentration giving n% inhibition of infection, replication or growth.

| compound | strain or isolate | conditions | cell line | mutations | value |
|---|---|---|---|---|---|
| O=CC1=C(Oc2ccccc2)N2C[C@@H]3CCCN4CCC[C@@H]([C@H]34)[C@H]2CC1 | IIIB |  | C8166 |  | 61.17 µg/mL |
| Cc1cn([C@@H]2O[C@H](COCc3ccccc3)C3(OS(=O)(=O)C(Cc4ccccc4)=C3NCc3ccccc3)[C@H]2O[Si](C)(C)C(C)(C)C)c(=O)n(C)c1=O | IIIB |  | MT-4 |  | 5.2 µM |
| CCOCn1c(Cc2ccccc2)c(CC)c(=O)[nH]c1=O | IIIB |  | CEM |  | 0.004 µg/mL |
| COc1ccc2oc3c([N+](=O)[O-])cccc3c2c1 |  |  | C8166 |  | 78.89 µg/mL |
| OC[C@@H]1[C@@H](O)[C@H](O)[C@@H](O)CN1CC#Cc1ccccc1 | IIIB |  | MOLT-4 |  | 250 µM |
| CCN1c2ncccc2-c2nccn2-c2ccc(OC)nc21 |  | 7 d | C8166 |  | <0.1 µM |
| O=C(OCc1ccccc1)N(CCCCCN1CCCN(CCCCCN(Cc2ccccc2)C(=O)OCc2ccccc2)CCN(CCCCCN(Cc2ccccc2)C(=O)OCc2ccccc2)CCCN(CCCCCN(Cc2ccccc2)C(=O)OCc2ccccc2)CC1)Cc1ccccc1 | LAV |  | MT-4 |  | 10 µM |
| Nc1ccn([C@H]2CC[C@@H](CO)O2)c(=O)n1 | Clone AZT-resistant RT M41L T215Y |  | MT-4 | RT-M41L T215Y | 0.043 µM |
| O=C(NCCCCN1CCCN(CCCCNC(=O)OCc2ccccc2)CCCN(CCCCNC(=O)OCc2ccccc2)CCN(CCCCNC(=O)OCc2ccccc2)CCC1)OCc1ccccc1 | LAV |  | MT-4 |  | >50 µM |
| Cc1cn([C@@H]2O[C@H](CO[Si](c3ccccc3)(c3ccccc3)C(C)(C)C)C3(OS(=O)(=O)C=C3N)[C@H]2O[Si](C)(C)C(C)(C)C)c(=O)n(C)c1=O | IIIB |  | MT-4 |  | 18 µM |
| Cc1cn([C@@H]2O[C@H](CO[Si](C)(C)C(C)(C)C)C3(OS(=O)(=O)C=C3N)[C@H]2O[Si](C)(C)C(C)(C)C)c(=O)n(C)c1=O | IIIB TIBO R82913-resistant (RT K103N) |  | CEM | RT-K103N | 0.15 µg/mL |
| Cc1cn([C@@H]2O[C@H](COC(=O)C(C)(C)C)C3(OS(=O)(=O)C=C3N)[C@H]2O[Si](C)(C)C(C)(C)C)c(=O)[nH]c1=O | IIIB |  | MT-4 |  | 13 µM |
| CCc1cc(NCc2nc3c(Cl)ccc(Cl)c3o2)c(=O)[nH]c1C | IIIB |  | HT4lacZ-1/IIIB + HT4 LacZ-1 |  | 0.02 µM |
| O=Cc1ccc(O/C=C2/CC[C@@H]3[C@H]4CCCN5CCC[C@@H](CN3C2=O)[C@@H]45)cc1 | IIIB |  | C8166 |  | 48.26 µg/mL |
| O=C(C1CCCN1C(=O)OCc1ccccc1)N1CCSC1 | LAV |  | CEM/MOLT-4 |  | >100 µM |
| O=CC1=C(Oc2ccc(Cl)cc2)N2C[C@@H]3CCCN4CCC[C@@H]([C@H]34)[C@H]2CC1 | IIIB |  | C8166 |  | 42.08 µg/mL |
| CCNC(=O)[C@@H](NC(=O)Cc1ccccc1)[C@@H]1N[C@@H](C(=O)NCCNC(=O)[C@@H]2N[C@@H]([C@H](NC(=O)Cc3ccccc3)C(=O)NCC)SC2(C)C)C(C)(C)S1 | RF |  | MT-4 |  | 1.1 µM |
| Cc1ccnc2c1NC(=O)c1cccnc1N2C1CC1 | IIIB TIBO R82913 STR-1 (RT L100I Y181C) |  | CEM | RT-L100I Y181C | 1.5 µM |
| OC[C@@H]1[C@@H](O)[C@H](O)[C@@H](O)CN1C/C=C/c1ccccc1Cl | IIIB |  | MOLT-4 |  | 160 µM |
| CC(=O)c1ccc(C)cc1NC(C(N)=O)c1c(Cl)cccc1Cl | IIIB |  | CEM |  | 0.01 µM |
| Cc1cn([C@@H]2O[C@H](COC(=O)c3ccccc3)[C@@H](O)[C@H]2OC(=O)c2ccccc2)c(=O)n(CC(=O)O)c1=O | IIIB |  | CEM |  | >50 µM |
| C=CCOC(=O)CCC |  |  | CEM |  | 45 µM |
| O[C@H]1[C@H](O)[C@@H](O)CN2CC[C@H](O)[C@H]12 | IIIB |  | MOLT-4 |  | 44 µM |
| CC(C)=CCOc1cc(NC(=S)c2ccoc2C)ccc1Cl | IIIB |  | CEM |  | 0.005 µM |
| O=S(=O)(O)c1cc(O)c2c(NS(=O)(=O)c3ccc(-c4ccc(S(=O)(=O)Nc5cc(S(=O)(=O)O)cc6cc(S(=O)(=O)O)cc(O)c56)cc4)cc3)cc(S(=O)(=O)O)cc2c1 | IIIB |  | MOLT-4 |  | 35 µM |
| Nc1ncnc2c1ncn2[C@H]1CC[C@@H](CO)O1 | IIIB |  | MT-4 |  | 5.27 µM |
| c1ccc(CNCCCCCN2CCCN(CCCCCNCc3ccccc3)CCCN(CCCCCNCc3ccccc3)CCN(CCCCCNCc3ccccc3)CCC2)cc1 | LAV |  | MT-4 |  | 1 µM |
| CCn1c(=O)c(C)cn([C@@H]2O[C@H](CO[Si](C)(C)C(C)(C)C)C3(OS(=O)(=O)C=C3N)[C@H]2O[Si](C)(C)C(C)(C)C)c1=O | IIIB NEV(RT-V106A) |  | CEM | RT-V106A | 27 µg/mL |
| Cc1cn([C@H]2C=C[C@@H](CO[Si](C)(C)C(C)(C)C)O2)c(=O)n(CC(=O)O)c1=O | IIIB |  | CEM |  | >50 µM |
| CCOCn1c(Cc2ccccc2)c(C(C)C)c(=O)[nH]c1=O | IIIB |  | CEM |  | 0.01 µM |
| O=[N+]([O-])c1cccc2c1oc1cc(F)ccc12 |  |  | C8166 |  | 15.32 µg/mL |
| O=C(NCCCCN1CCCN(CCCCNC(=O)OCc2ccccc2)CCN(CCCCNC(=O)OCc2ccccc2)CCCN(CCCCNC(=O)OCc2ccccc2)CC1)OCc1ccccc1 | LAV |  | MT-4 |  | >10 µM |
| OC[C@@H]1[C@@H](O)[C@H](O)[C@@H](O)CN1C/C=C/c1ccc(F)cc1 | IIIB |  | MOLT-4 |  | 29 µM |
| O=C(NCCCN1CCCN(CCCNC(=O)OCc2ccccc2)CCN(CCCNC(=O)OCc2ccccc2)CCCN(CCCNC(=O)OCc2ccccc2)CC1)OCc1ccccc1 | LAV |  | MT-4 |  | >50 µM |
| Cc1ccc(S(=O)(=O)OC[C@H]2O[C@@H](n3cc(C)c(=O)n(C)c3=O)[C@H](O[Si](C)(C)C(C)(C)C)C23OS(=O)(=O)C=C3N)cc1 | IIIB |  | MT-4 |  | 24 µM |
| O=C(C1CSCN1C(=O)OCc1ccccc1)N1CCCC1 | LAV |  | CEM/MOLT-4 |  | >100 µM |
| N#Cc1ccc2oc3ccccc3c2c1 |  |  | C8166 |  | 12.52 µg/mL |
| O=CC1=C(Oc2cccc3ccccc23)N2C[C@@H]3CCCN4CCC[C@@H]([C@H]34)[C@H]2CC1 | IIIB |  | C8166 |  | 1.79 µg/mL |
| CC1(C)S[C@H]([C@H](NC(=O)Cc2ccccc2)C(=O)NCc2ccccc2)N[C@H]1C(=O)NCCNC(=O)[C@@H]1N[C@@H]([C@H](NC(=O)Cc2ccccc2)C(=O)NCc2ccccc2)SC1(C)C | RF |  | MT-4 |  | 0.06 µM |
| C/C1=C\C[C@]2(C)C(=O)C(O)=C([C@H](C)CO)[C@H]2C/C=C(\C)[C@@H](O)CC/C(C)=C/CC1 |  |  | HELA-T4 + HeLa |  | 0.46 µg/mL |
| Cc1c(Sc2ccccc2)n(COCCO)c(=O)[nH]c1=O | IIIB HEPT-resistant (RT Y188H) |  | CEM | RT-Y188H | ≥250 µg/mL |
| O=CC1=C(Oc2ccc3ccccc3c2)N2C[C@@H]3CCCN4CCC[C@@H]([C@H]34)[C@H]2CC1 | IIIB |  | C8166 |  | 19.36 µg/mL |
| Cc1cn([C@@H]2O[C@H](CO[Si](C)(C)C(C)(C)C)C3(OS(=O)(=O)C=C3N)[C@H]2O)c(=O)[nH]c1=O | IIIB |  | MT-4 |  | >40 µM |
| OC[C@@H]1[C@@H](O)[C@H](O)[C@@H](O)CN1CCCC(F)(F)F | IIIB |  | MOLT-4 |  | 80 µM |
| CCc1cc(NCc2nc3c(Cl)ccc(Cl)c3o2)c(=O)[nH]c1C | IIIB HEPT-resistant (RT Y188H) |  | CEM | RT-Y188H | 1.5 µg/mL |
| CCCCCCCCCCCCCCCC(=O)Nc1cc(S(=O)(=O)O)cc2cc(S(=O)(=O)O)cc(O)c12 | IIIB |  | MOLT-4 |  | 53 µM |
| Cc1cn([C@@H]2O[C@H](CO[Si](C)(C)C(C)(C)C)C3(OS(=O)(=O)C=C3N)[C@H]2O[Si](C)(C)C(C)(C)C)c(=O)n(C)c1=O | IIIB |  | CEM |  | 0.03 µM |
| N#Cc1ccc2oc3cc(F)ccc3c2c1 |  |  | C8166 |  | 12.99 µg/mL |
| Cc1cn([C@@H]2O[C@H](CO[Si](C)(C)C(C)(C)C)C3(OS(=O)(=O)C=C3N)[C@H]2O[Si](C)(C)C(C)(C)C)c(=O)n(C)c1=O | IIIB |  | CEM |  | 0.06 µM |
| Cc1cn([C@@H]2O[C@H](CO[Si](C)(C)C(C)(C)C)[C@@H](O[Si](C)(C)C(C)(C)C)[C@H]2O)c(=O)n(CCO)c1=O | IIIB |  | CEM |  | >50 µM |
| CCN1c2ncccc2-c2ncc(C)n2-c2ccc(OC)nc21 |  | 7 d | C8166 |  | <0.01 µM |
| CCCCCCCCCCCCCCCCOCCOP(=O)(O)OC[C@H]1O[C@@H](n2cc(C)c(=O)[nH]c2=O)C[C@@H]1N=[N+]=[N-] | IIIB |  | CEM + CEM/O |  | 0.042 µM |
| COC(=O)[C@H](C)NP(=O)(OC[C@@H]1C=C[C@H](n2cc(C)c(=O)[nH]c2=O)O1)Oc1ccccc1 | IIIB | 4 d | CEM |  | 0.18 µM |
| CCCCCCCCCCCCCCOP(=O)(O)OC[C@H]1O[C@@H](n2cc(C)c(=O)[nH]c2=O)C[C@@H]1N=[N+]=[N-] | IIIB |  | CEM + CEM/O |  | 0.61 µM |
| Cc1ccccc1OC1=C(C=O)CC[C@@H]2[C@H]3CCCN4CCC[C@@H](CN12)[C@@H]34 | IIIB |  | C8166 |  | 19.78 µg/mL |
| CCCCCCCCCCCCOCCOP(=O)(O)OC[C@H]1O[C@@H](n2cc(C)c(=O)[nH]c2=O)C[C@@H]1N=[N+]=[N-] | IIIB |  | CEM + CEM/O |  | 0.115 µM |
| O=C(NCCCCCN1CCCN(CCCCCNC(=O)OCc2ccccc2)CCCN(CCCCCNC(=O)OCc2ccccc2)CCN(CCCCCNC(=O)OCc2ccccc2)CCC1)OCc1ccccc1 | LAV |  | MT-4 |  | >1 µM |
| O=[N+]([O-])c1cccc2c1oc1ccccc12 |  |  | C8166 |  | 42.92 µg/mL |
| COC(=O)[C@H](C)NP(=O)(OC[C@@H]1C=C[C@H](n2cnc3c(N)ncnc32)O1)Oc1ccccc1 | IIIB |  | CEM |  | 0.006 µM |
| O=c1[nH]cnc2c1ncn2[C@H]1CC[C@@H](CO)O1 | IIIB TIBO R82913 STR-2 (RT K103N) |  | CEM | RT-K103N | 7.5 µM |
| Cc1cn([C@@H]2O[C@H](CO[Si](C)(C)C(C)(C)C)[C@@H](O)[C@H]2O[Si](C)(C)C(C)(C)C)c(=O)n(CCO)c1=O | IIIB |  | CEM |  | >50 µM |
| C=CCO |  |  | CEM |  | 10 µM |
| O=C1/C(=C\Oc2ccc([N+](=O)[O-])cc2)CC[C@@H]2[C@H]3CCCN4CCC[C@@H](CN12)[C@@H]34 | IIIB |  | C8166 |  | 14.36 µg/mL |
| OC[C@@H]1[C@@H](O)[C@H](O)[C@@H](O)CN1CCCc1ccccc1 | IIIB |  | MOLT-4 |  | 16 µM |
| Nc1nc2c(ncn2[C@H]2CC[C@@H](CO)O2)c(=O)[nH]1 | IIIB TIBO R82913 STR-1 (RT L100I Y181C) |  | CEM | RT-L100I Y181C | 0.7 µM |
| Cc1cn([C@@H]2O[C@H](COCc3ccccc3)C3(OS(=O)(=O)C=C3NC(=O)c3ccccc3)[C@H]2OC(=O)c2ccccc2)c(=O)[nH]c1=O | IIIB |  | MT-4 |  | >40 µM |